Record: PubChem BioAssay AID1224833 (University of Georgia, 2016)
The deposit covers about 12,000 reagents; below is a part drawn at random. Of all reagents, about 5,600 (46%) are marked active. 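Active calls cover z-scores past 1 in both directions, so they include lowered as well as raised rotavirus replication.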 Reagent sequences are not shown.

Purpose: 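Host factors restraining rotavirus as candidate antiviral genes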 (primary screen)
System: monkey MA104 kidney cells
Reagents: siRNA pool against human genes, 50 nM
Time to read-out: 48 h knock-down before infection; read 24 h after infection
Treatment: infection with rotavirus strain RV3 two days after transfection; infectious dose for this stage not given
Measurement: 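Rotavirus antigen per well by fluorescent immunoassay, normalised to non-targeting control wells on each plate and given as a standard z-score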
Direction: z-score vs non-targeting control: higher = more rotavirus replication than with non-targeting control
Active means: In these data the active calls have z-score vs non-targeting control at about -1 or lower, or at about 1 or higher
Calls: active = z-score beyond 1 either way; inactive = z-score within 1 of zero

| gene knocked down | z-score vs non-targeting control | call |
| --- | --- | --- |
| LOXL1 (lysyl oxidase like 1) | -0.571 | inactive |
| ST6GALNAC5 (ST6 N-acetylgalactosaminide alpha-2,6-sialyltransferase 5) | -1.02 | active |
| VCAN (versican) | 0.0919 | inactive |
| CEP152 (centrosomal protein 152) | 1.49 | active |
| MIER1 (MIER1 transcriptional regulator) | 0.997 | inactive |
| OR3A2 (olfactory receptor family 3 subfamily A member 2) | -2.22 | active |
| KRTAP12-1 (keratin associated protein 12-1) | -0.969 | inactive |
| C22orf39 (chromosome 22 open reading frame 39) | -2.08 | active |
| RUSF1 (RUS family member 1) | -0.675 | inactive |
| SLC12A3 | -2.08 | active |
| ASAH2 (N-acylsphingosine amidohydrolase 2) | 1.07 | active |
| GCFC2 (GC-rich sequence DNA-binding factor 2) | -0.674 | inactive |
| SLC35G3 | -0.635 | inactive |
| SLC4A9 | -1.7 | active |
| CGB8 (chorionic gonadotropin subunit beta 8) | -0.417 | inactive |
| CERS6 (ceramide synthase 6) | 1.56 | active |
| SYT10 (synaptotagmin 10) | 0.368 | inactive |
| SNAP91 (synaptosome associated protein 91) | 1.3 | active |
| OR5AP2 (olfactory receptor family 5 subfamily AP member 2) | -0.832 | inactive |
| RAB1B (RAB1B, member RAS oncogene family) | 0.692 | inactive |
| LCE3E (late cornified envelope 3E) | 0.448 | inactive |
| SCGB1D1 (secretoglobin family 1D member 1) | -0.927 | inactive |
| ARHGEF6 (Rac/Cdc42 guanine nucleotide exchange factor 6) | -1.85 | active |
| DNAAF3 (dynein axonemal assembly factor 3) | -1.48 | active |
| FKBP11 (FKBP prolyl isomerase 11) | 0.648 | inactive |
| FRA10AC1 (FRA10A associated CGG repeat 1) | 0.884 | inactive |
| MAML3 (mastermind like transcriptional coactivator 3) | -2.06 | active |
| SRBD1 (S1 RNA binding domain 1) | -1.21 | active |
| EVA1C (eva-1 homolog C) | -0.393 | inactive |
| MALT1 (MALT1 paracaspase) | -0.76 | inactive |
| LCN10 (lipocalin 10) | 0.203 | inactive |
| KDELR2 (KDEL endoplasmic reticulum protein retention receptor 2) | -0.803 | inactive |
| MICA (MHC class I polypeptide-related sequence A) | -1.37 | active |
| ATL3 (atlastin GTPase 3) | -1.31 | active |
| ADAMTS3 (ADAM metallopeptidase with thrombospondin type 1 motif 3) | 0.748 | inactive |
| SLBP (stem-loop histone mRNA binding protein) | 0.128 | inactive |
| B4GALT6 (beta-1,4-galactosyltransferase 6) | -0.626 | inactive |
| DPY30 (dpy-30 histone methyltransferase complex regulatory subunit) | -1.14 | active |
| NFATC2 (nuclear factor of activated T cells 2) | -0.777 | inactive |
| MAN1B1 (mannosidase alpha class 1B member 1) | -0.663 | inactive |
| LAMC1 (laminin subunit gamma 1) | 0.177 | inactive |
| TCF12 (transcription factor 12) | -1.87 | active |
| FAM151B (family with sequence similarity 151 member B) | -0.49 | inactive |
| GPX2 (glutathione peroxidase 2) | -1.75 | active |
| PIGR (polymeric immunoglobulin receptor) | 1.28 | active |
| SPP2 (secreted phosphoprotein 2) | 0.831 | inactive |
| CCDC54 (coiled-coil domain containing 54) | 0.234 | inactive |
| LIN9 (lin-9 DREAM MuvB core complex component) | -0.308 | inactive |
| GZMK (granzyme K) | 0.911 | inactive |
| CYP2S1 (cytochrome P450 family 2 subfamily S member 1) | 1.02 | active |
| PTDSS2 (phosphatidylserine synthase 2) | -0.699 | inactive |
| SOSTDC1 (sclerostin domain containing 1) | 1.73 | active |
| AP1M1 (adaptor related protein complex 1 subunit mu 1) | 0.17 | inactive |
| MFN1 (mitofusin 1) | -0.68 | inactive |
| SNIP1 (Smad nuclear interacting protein 1) | -0.359 | inactive |
| HSPA9 (heat shock protein family A (Hsp70) member 9) | -0.81 | inactive |
| DNM1L (dynamin 1L) | -0.905 | inactive |
| SDC4 (syndecan 4) | -1.27 | active |
| GTPBP1 (GTP binding protein 1) | 1.34 | active |
| SLC35D1 | -3.11 | active |
| NRROS (negative regulator of reactive oxygen species) | 1.32 | active |
| RHNO1 (RAD9-HUS1-RAD1 interacting nuclear orphan 1) | -0.787 | inactive |
| TADA3 (transcriptional adaptor 3) | 1.15 | active |
| LYVE1 (lymphatic vessel endothelial hyaluronan receptor 1) | -0.866 | inactive |
| BPIFB1 (BPI fold containing family B member 1) | 1.48 | active |
| NUSAP1 (nucleolar and spindle associated protein 1) | -2.39 | active |
| ZKSCAN1 (zinc finger with KRAB and SCAN domains 1) | 0.763 | inactive |
| SRY (sex determining region Y) | -0.761 | inactive |
| RHOBTB2 (Rho related BTB domain containing 2) | -2.19 | active |
| GDAP2 (ganglioside induced differentiation associated protein 2) | 1.06 | active |
| CDK9 (cyclin dependent kinase 9) | 4.18 | active |
| CRLF3 (cytokine receptor like factor 3) | 0.865 | inactive |
| SCX (scleraxis bHLH transcription factor) | 0.841 | inactive |
| SLAIN1 (SLAIN family member 1) | -1.17 | active |
| ATP5PF (ATP synthase peripheral stalk subunit F6) | -0.931 | inactive |
| TMA7 (translation machinery associated 7 homolog) | -0.335 | inactive |
| AKAP19 (A-kinase anchoring protein 19) | -1.47 | active |
| SMARCA4 | 2.97 | active |
| CX3CR1 (C-X3-C motif chemokine receptor 1) | 0.828 | inactive |
| PLA2G12B (phospholipase A2 group XIIB) | -2.08 | active |
| CFAP95 (cilia and flagella associated protein 95) | -1.41 | active |
| KLHL18 (kelch like family member 18) | -1.44 | active |
| VASH1 (vasohibin 1) | -1.45 | active |
| ZNF205 (zinc finger protein 205) | -0.301 | inactive |
| HSF5 (heat shock transcription factor 5) | -1.67 | active |
| SMARCA1 (SNF2 related chromatin remodeling ATPase 1) | -0.556 | inactive |
| RELL1 (RELT like 1) | -1.18 | active |
| CA11 (carbonic anhydrase 11 (inactive)) | -0.677 | inactive |
| SEC24D (SEC24 homolog D, COPII component) | 0.372 | inactive |
| ASPHD1 (aspartate beta-hydroxylase domain containing 1) | -2.32 | active |
| CEND1 (cell cycle exit and neuronal differentiation 1) | -2.23 | active |
| CARF (calcium responsive transcription factor) | -1.24 | active |
| MRPS16 (mitochondrial ribosomal protein S16) | 0.433 | inactive |
| BMP1 (bone morphogenetic protein 1) | 1.01 | active |
| BCO1 (beta-carotene oxygenase 1) | 1.24 | active |
| PRIM1 (DNA primase subunit 1) | 1.01 | active |
| LPCAT3 (lysophosphatidylcholine acyltransferase 3) | 0.269 | inactive |
| CHST4 (carbohydrate sulfotransferase 4) | -2.43 | active |
| SENP2 (SUMO specific peptidase 2) | -0.662 | inactive |
| HOGA1 (4-hydroxy-2-oxoglutarate aldolase 1) | -0.0799 | inactive |
| GUSB (glucuronidase beta) | -1.67 | active |
| GBP5 (guanylate binding protein 5) | -1.81 | active |
| RBBP8NL (RBBP8 N-terminal like) | -0.0688 | inactive |
| IFNA2 (interferon alpha 2) | -1.16 | active |
| EXOC8 (exocyst complex component 8) | -0.54 | inactive |
| TNFSF14 (TNF superfamily member 14) | 2.05 | active |
| SERHL2 (serine hydrolase like 2) | -1.32 | active |
| SLC27A6 | 0.832 | inactive |
| RHBDD2 (rhomboid domain containing 2) | 0.279 | inactive |
| CRYZ (crystallin zeta) | -1.25 | active |
| YKT6 (YKT6 vesicular SNARE protein) | -0.18 | inactive |
| TTC14 (tetratricopeptide repeat domain 14) | 0.319 | inactive |
| ANO3 (anoctamin 3) | -1.41 | active |
| HAPLN2 (hyaluronan and proteoglycan link protein 2) | 0.527 | inactive |
| IFNA1 (interferon alpha 1) | -1.09 | active |
| CNBD2 (cyclic nucleotide binding domain containing 2) | -0.686 | inactive |
| HGD (homogentisate 1,2-dioxygenase) | 2.09 | active |
| CNOT12 (CCR4-NOT transcription complex subunit 12) | 1 | active |
| NIBAN2 (niban apoptosis regulator 2) | 1.01 | active |
| FRMPD4 (FERM and PDZ domain containing 4) | -0.801 | inactive |
| YIPF2 (Yip1 domain family member 2) | -1.16 | active |
| LZTFL1 (leucine zipper transcription factor like 1) | -1.17 | active |
| RAB11FIP1 (RAB11 family interacting protein 1) | 1.31 | active |
| SURF1 (SURF1 cytochrome c oxidase assembly factor) | -0.599 | inactive |
| KLHL1 (kelch like family member 1) | 0.0642 | inactive |
| PFDN5 (prefoldin subunit 5) | 0.625 | inactive |
| MSC (musculin) | -1.07 | active |
| CMC2 (C-X9-C motif containing 2) | -0.663 | inactive |
| XG (Xg glycoprotein (Xg blood group)) | -1.84 | active |
| NEU1 (neuraminidase 1) | 1.79 | active |
| RNASE9 (ribonuclease A family member 9 (inactive)) | 1.58 | active |
| EVL (Enah/Vasp-like) | -0.596 | inactive |
| TMEM47 (transmembrane protein 47) | 0.26 | inactive |
| OR5AN1 (olfactory receptor family 5 subfamily AN member 1) | 0.774 | inactive |
| KRTAP6-3 (keratin associated protein 6-3) | -0.251 | inactive |
| LAMP5 (lysosome associated membrane protein 5) | 0.0491 | inactive |
| TTC33 (tetratricopeptide repeat domain 33) | 0.617 | inactive |
| CLEC2A (C-type lectin domain family 2 member A) | -1.25 | active |
| PUM1 (pumilio RNA binding family member 1) | 0.114 | inactive |
| PMAIP1 (phorbol-12-myristate-13-acetate-induced protein 1) | 0.66 | inactive |
